A mixed list of measured activities; the numbers were collected in NIAID ChemDB.

All rows: tests in culture; organism: Mycobacterium tuberculosis

MIC bound comes from a single tested concentration. Blank or dashed fields: not listed here. ECn: concentration that inhibits the pathogen or its effect by n%. Percent inhibition refers to the dose given; in toxicity tests it is the harm to the cells. A number after MIC or MFC names an inhibition level or a share of isolates. Lines come from different laboratories, so protocols vary.

compound | strain | changes | read by | conditions | read-out | dose | value
COc1ccc2nc(C)cc(Nc3ccc(Oc4ccc(Cl)c5ccccc45)c(Cl)c3)c2c1 | H37Rv | - | - | - | MIC100 | - | 1 µg/mL
O=[N+]([O-])c1ccc(O)c(C=Nc2cccc3cccnc23)c1 | H37Rv | - | visual reading | - | MIC | - | 4 µg/mL
CC[C@H]1OC(=O)[C@H](C)[C@@H](O[C@H]2C[C@@](C)(OC)[C@@H](O)[C@H](C)O2)[C@H](C)[C@@H](O[C@@H]2O[C@H](C)C[C@H](N(C)C)[C@H]2O)[C@](C)(OC)C[C@@H](C)C(=O)[C@H](C)[C@@H](O)[C@]1(C)O | Isolate 2227 | - | - | - | MIC | - | >4 µg/mL
COc1ncc(F)c2nc(S(=O)(=O)Nc3c(O)cccc3C(C)O)nn12 | X59 | INH RIF resistant | visual reading | - | MIC50 | - | 0.5 µM
O=C(NCCOCCOCCNC(=O)c1ccc2c(c1)B(O)OC2)c1ccc2c(c1)B(O)OC2 | H37Rv | - | visual reading / absorbance | - | MIC | - | 1560 µM
C/C(=N\NC(=O)c1ccncc1)c1ccccc1F | 16PI | - | - | - | MIC | - | >20 µg/mL
COc1ccc(-n2[nH]c(C)c(N=Nc3ccc(-c4n[nH]c(=S)o4)cc3)c2=O)cc1 | H37Rv | - | - | - | EC50 | - | >6.25 µg/mL
COc1ccc2nc(-c3ccccc3)cc(Nc3cccc(O)c3)c2c1 | Strain 2 (MDR) | - | - | - | MIC | - | >1 µg/mL
O=C(Oc1cc(Cl)ccc1C(=O)Nc1ccc(F)cc1)c1ccccc1 | 331/88 (H37Rv) | - | broth dilution | 14 d | MIC | - | 8 µM
NNC(=O)c1ccncc1 | Isolate C | - | - | - | MIC | - | 0.062 µg/mL
COc1cc(-c2csc(-n3cccc3)n2)cc(OC)c1OC | H37Rv | - | resazurin | - | MIC | - | 50 µg/mL
O=C(Nc1ncn[nH]1)c1cc(F)ccc1O | My 331/88 | - | - | - | MIC | - | 500 µM
O=C(NNc1cc(-c2ccccc2)nc2ccc(Cl)cc12)c1ccncc1 | Strain 1 (MDR) | - | - | - | MIC | - | 9 µg/mL
O=C(NN1C(=O)C=CC1=O)c1ccc(-n2cccc2)cc1 | H37Rv | - | resazurin | - | MIC | - | 6.25 µg/mL
O=C(Nc1nc(-c2ccccn2)cs1)C1=CC=C(Br)C1 | H37Rv | - | - | - | MIC100 | - | >32 µg/mL
CCCCCCc1cc(C(=O)N/N=C/c2ccc(Cl)cc2)c2ccccc2n1 | H37Rv | - | BACTEC | - | inhibition | 12.5 µg/mL | -6%
Oc1cccc(Nc2cc(-c3ccccc3)nc3ccc(Cl)cc23)c1 | Strain 1 (MDR) | - | - | - | MIC | - | 4 µg/mL
O=C(Nc1cnccn1)c1ccc(Cl)cc1O | My 331/88 | - | - | - | MIC | - | 16 µM
C=CCn1c(-c2ccc([N+](=O)[O-])cc2)csc1=N | H37Rv | - | BACTEC | - | MIC bound | - | ≤12.5 µg/mL
NNC(=O)c1ccncc1 | MTB23 (S) | - | - | - | MIC | - | 0.12 µg/mL
Cc1ccc(C)n1-c1nc(-c2ccc(Cl)cc2Cl)cs1 | H37Rv | - | resazurin | - | MIC | - | 0.4 µg/mL
S=C(S)Nc1ccc(Cl)cc1 | KM-R | - | - | - | MIC | - | >12.5 µg/mL
Cc1cc(/C=C2\SC(=O)NC2=O)c(C)n1C1CCCCC1 | H37Rv | - | visual reading | - | MIC | - | >16 µg/mL
NNC(=O)CCCCC(=O)NN | - | - | - | - | inhibition | 0.125 µg/mL | 60%
Cc1ccc(C(=O)Nc2cncs2)c(O)c1 | My 331/88 | - | - | - | MIC | - | 16 µM
N#Cc1ccc(Nc2nc(Oc3cccc4cccnc34)nc(N3CCN(c4ccccc4)CC3)n2)cc1C(F)(F)F | H37Rv | - | BACTEC | - | MIC | - | >6.25 µg/mL
COc1ccc(C(=O)Nc2ncn[nH]2)c(O)c1 | My 331/88 | - | - | - | MIC | - | 500 µM
CCOC(=O)/C(N=Nc1ccc(-c2n[nH]c(=S)n2C)cc1)=C(\C)O | H37Rv | - | - | - | inhibition | 6.25 µg/mL | 1%
O=C1OC(c2ccccc2)=N/C1=C\c1cccs1 | H37Rv | - | BACTEC | - | MIC bound | - | >12.5 µg/mL
CC[C@@H](CO)NCCN[C@@H](CC)CO | 90-0201 (DRUG-SUS) | - | - | - | MIC | - | 1 µg/mL
O=C(Nc1cnccn1)c1cc(F)ccc1O | My 331/88 | - | - | - | MIC | - | 125 µM
N#Cc1ccc(Nc2nc(Oc3cccc4cccnc34)nc(N3CCN(c4ccc(F)cc4)CC3)n2)cc1C(F)(F)F | H37Rv | - | agar | - | MIC99 | - | 25 µg/mL
Cc1c(C(=O)Nc2ccc(Cl)c(C(F)(F)F)c2)oc2cc(O)ccc2/c1=N\NC(N)=S | H37Rv | - | BACTEC | - | MIC bound | - | >12.5 µg/mL
COc1ccc(N2CCN(c3nc(Nc4ccc(C#N)c(C(F)(F)F)c4)nc(Oc4cccc5cccnc45)n3)CC2)cc1 | H37Rv | - | agar | - | MIC99 | - | 6.25 µg/mL
NCC[C@H](O)C(=O)N[C@@H]1C[C@H](N)[C@@H](O[C@H]2O[C@H](CN)[C@@H](O)[C@H](O)[C@H]2O)[C@H](O)[C@H]1O[C@H]1O[C@H](CO)[C@@H](O)[C@H](N)[C@H]1O | 90-0233 (isoniazid streptomycin-resistant) | - | - | - | MIC | - | 0.5 µg/mL
COc1ccc(-n2[nH]c(C)c(N=Nc3ccc(-c4n[nH]c(=S)n4C)cc3)c2=O)cc1 | H37Rv | - | - | - | MIC | - | >6.25 µg/mL
COc1ccc(/C=N/NC(=O)c2cnccn2)cc1 | H37Rv | - | BACTEC | - | MIC bound | - | >12.5 µg/mL
O=C(Oc1ccc(Cl)cc1C(=O)Nc1ccc(C(F)(F)F)cc1)c1ccccc1 | 9449/2006 | - | broth dilution | 14 d | MIC | - | 0.5 µM
COC(=O)c1cc(-c2ccc(N)cc2)c2c(=O)n(-c3ccccc3)[nH]c2n1 | H37Rv | - | BACTEC | - | inhibition | 12.5 µg/mL | 21%
Cc1ccc(C)n1-c1ccc(C(=O)NN2C(=O)[C@H]3CCCC[C@H]3C2=O)cc1 | H37Rv | - | resazurin | - | MIC | - | 6.25 µg/mL
CC(=O)N1C(=O)/C(=C\C(=O)c2ccc([N+](=O)[O-])cc2)c2ccccc21 | H37Rv | - | visual reading | - | MIC | - | 8 µg/mL
CCCNC(=O)N1CC(CN2CCN(c3ccccc3)CC2)O/C1=N/C(=O)Nc1ccccc1 | H37Rv | - | resazurin | - | inhibition | 6.25 µg/mL | 7%
N#Cc1ccc(Nc2nc(Oc3cccc4cccnc34)nc(N3CCN(c4cccc(C(F)(F)F)c4)CC3)n2)cc1C(F)(F)F | H37Rv | - | agar | - | MIC99 | - | 6.25 µg/mL
Cc1ccc(N2C(=O)CSC2=S)cc1Cl | H37Rv | - | BACTEC | - | MIC bound | - | >12.5 µg/mL
Cc1ccc(C)n1-c1nc(-c2ccccc2)cs1 | H37Rv | - | resazurin | - | MIC | - | 0.4 µM
CO/N=C(\C)c1cccc(F)c1NS(=O)(=O)c1nc2c(F)cnc(OC)n2n1 | P887 | INH RIF resistant | visual reading | - | MIC50 | - | 1 µM
O=C(Nc1cncs1)c1cc(F)ccc1O | My 331/88 | - | - | - | MIC | - | 250 µM
Cc1ccc(C)n1-c1ccc(C(=O)NN2C(=O)c3cccc([N+](=O)[O-])c3C2=O)cc1 | H37Rv | - | resazurin | - | MIC | - | 6.25 µg/mL
COc1cccc2c(Nc3ccc(S(=O)(=O)c4ccc(NC(C)=O)cc4)cc3)ccnc12 | Strain 1 (MDR) | - | - | - | MIC | - | 1 µg/mL
COc1cccc(/C=C2/Sc3sc(C(C)=O)c(C)[n+]3C2=O)c1O.[Cl-] | H37Rv | - | BACTEC | - | inhibition | 12.5 µg/mL | 0%
Cc1[nH]n(-c2ccc([N+](=O)[O-])cc2)c(=O)c1N=Nc1ccc(-c2n[nH]c(=S)o2)cc1 | H37Rv | - | - | - | EC50 | - | >6.25 µg/mL
Cc1ccc(Nc2[nH]n3c(=O)cc(C)nc3c2C(=O)Nc2ccccc2)cc1 | H37Rv | - | resazurin | - | MIC | - | 100 µg/mL
COc1cc(CN2Cc3c(N)nc(N)nc3C2=O)cc(OC)c1C | H37Rv | - | BACTEC | - | inhibition | 12.8 µg/mL | 18%
COc1ccccc1NC(=O)c1c(Nc2cccc(C)c2)[nH]n2c(=O)cc(C)nc12 | H37Rv | - | resazurin | - | MIC | - | 3.12 µg/mL
COc1cc(O)c2c(=O)cc(-c3ccc(O)cc3)oc2c1 | H37Rv | - | resazurin | - | MIC | - | >50 µg/mL
O=C(Oc1ccc(Cl)cc1C(=O)Nc1ccc(Cl)c(Cl)c1)c1ccccc1 | 234/2005 | - | broth dilution | 21 d | MIC | - | 0.5 µM
O=[n+]1c2ccc(Cl)cc2n([O-])c2ccc(Cl)cc21 | H37Rv | - | BACTEC | - | MIC | - | ≥12.5 µg/mL
CO/C(=N\N=C\c1ccc(C(F)(F)F)cc1)c1ccncc1 | 6 PI | - | - | - | MIC | - | >20 µg/mL
Nc1nc(N)c(C(=O)SCc2ccccc2)nc1Cl | H37Rv | - | BACTEC | - | MIC | - | ≥12.5 µg/mL
C/C=C/C/C=C/CCC(=O)[C@H]1O[C@H]1C(N)=O | 90-0233 (isoniazid streptomycin-resistant) | - | - | - | MIC | - | 2.5 µg/mL
C[C@@H]1[C@H](C)[C@@H](c2ccc(O)cc2)O[C@H]1c1ccc(O)cc1 | H37Rv | - | resazurin | - | MIC | - | 50 µg/mL
CCC(C(=O)NN)c1ccccc1 | - | - | - | - | inhibition | 0.25 µg/mL | 60%
NC(=S)N/N=C/c1ccc2oc3ccccc3c2c1 | H37Rv | - | BACTEC | - | MIC bound | - | <6.25 µg/mL
C[C@H]1[C@H](c2ccc(O)cc2)c2cc(O)c(O)cc2C[C@H]1C | Clinical isolates | - | resazurin | multidrug-resistant | MIC | - | 12.5 µg/mL
C/C(=N\NC(=O)c1ccncc1)c1cccc(C(F)(F)F)c1 | H37Rv | - | - | - | MIC | - | >20 µg/mL
CC(C)N=c1cc2n(-c3ccc(Cl)cc3)c3ccccc3nc-2cc1Nc1ccc(Cl)cc1 | 90-0216 (DRUG-SUS) | - | - | - | MIC | - | 0.4 µg/mL
COc1ccc2c(c1)C=CC1OC(C(C)=O)(C(C)=O)C(C=O)=CN21 | H37Rv | - | BACTEC | - | MIC bound | - | >12.5 µg/mL
O=C(Oc1ccc(Br)cc1C(=O)Nc1ccc(C(F)(F)F)cc1)c1ccccc1 | 9449/2006 | - | broth dilution | 14 d | MIC | - | 1 µM
COc1ccc(NC(=O)c2c(Nc3ccc(OC)cc3)[nH]n3c(=O)cc(C)nc23)cc1 | H37Rv | - | resazurin | - | MIC | - | 12.5 µg/mL
CC(=O)/C(N=Nc1ccc(C(=O)N/N=C/c2ccc([N+](=O)[O-])o2)cc1)=C(/O)c1ccccc1 | H37Rv | - | - | - | inhibition | 12.5 µg/mL | 94%
O=C(Oc1cc(Cl)ccc1C(=O)Nc1ccc(Cl)cc1)c1ccccc1 | 331/88 (H37Rv) | - | broth dilution | 14 d | MIC | - | 2 µM
Cc1ccc2nccc(NC(=S)Nc3ccc(Cl)cc3)c2c1 | Strain 2 (MDR) | - | - | - | MIC | - | >2 µg/mL
Cc1nnc(N/N=C/c2ccc([N+](=O)[O-])o2)[nH]c1=O | H37Rv | - | BACTEC | - | MIC | - | ≥12.5 µg/mL
Cc1cc(=O)n2[nH]c(Nc3ccc(F)c(F)c3)c(C(=O)Nc3ccc(F)cc3)c2n1 | H37Rv | - | resazurin | - | MIC | - | 0.8 µg/mL
O=[S@@]1Nc2cc(Cl)c(Cl)cc2S1 | H37Rv | - | BACTEC | - | inhibition | 12.5 µg/mL | 18%
N#Cc1ccc(Nc2nc(Oc3cccc4cccnc34)nc(N3CCN(C(c4ccccc4)c4ccccc4)CC3)n2)cc1C(F)(F)F | H37Rv | - | BACTEC | - | MIC | - | >6.25 µg/mL
CC(=O)OC1C2(CC3N4C(=O)C5(CO)SSC4(CC31O)C(=O)N5C)OC(C)C(C)(C)C2=O | H37Rv | - | resazurin | - | inhibition | 6.25 µg/mL | 100%
Cc1ccc2sc(N(CCCn3ccnc3)C(=O)c3ccco3)nc2c1C | H37Rv | - | - | - | MIC100 | - | 1 µg/mL
COc1ccc(/C=C2/S/C(=N/N=C/c3ccccc3O)NC2=O)cc1 | H37Rv | - | visual reading | - | MIC | - | 1 µg/mL
N#Cc1ccc(Nc2nc(Oc3cccc4cccnc34)nc(N3CCC(Cc4ccccc4)CC3)n2)cc1C(F)(F)F | H37Rv | - | BACTEC | - | MIC | - | >6.25 µg/mL
CC12OC1(C)C1C(=O)OCC1C2=O | H37Rv | - | BACTEC | - | inhibition | 12.5 µg/mL | 11%
CO/C(=N\N=C\c1cc(OC)ccc1OC)c1ccncc1 | 6 PI | - | - | - | MIC | - | >20 µg/mL
CSc1nc(N)c2c(n1)N(C)C=NS2(=O)=O | H37Rv | - | BACTEC | - | MIC bound | - | >12.5 µg/mL
Cc1ccc2nc(-c3ccccc3)cc(NNC(=O)c3ccncc3)c2c1 | Strain 1 (MDR) | - | - | - | MIC | - | >1 µg/mL

5 of the rows above, restated:

compound,strain,changes,read by,conditions,read-out,dose,value
O=C(NNc1cc(-c2ccccc2)nc2ccc(Cl)cc12)c1ccncc1,Strain 1 (MDR),-,-,-,MIC,-,9 µg/mL
O=C(Nc1cnccn1)c1ccc(Cl)cc1O,My 331/88,-,-,-,MIC,-,16 µM
Cc1ccc(C)n1-c1nc(-c2ccc(Cl)cc2Cl)cs1,H37Rv,-,resazurin,-,MIC,-,0.4 µg/mL
NNC(=O)c1ccncc1,MTB23 (S),-,-,-,MIC,-,0.12 µg/mL
CC(=O)OC1C2(CC3N4C(=O)C5(CO)SSC4(CC31O)C(=O)N5C)OC(C)C(C)(C)C2=O,H37Rv,-,resazurin,-,inhibition,6.25 µg/mL,100%